Experimental data: patent US11707504B1 (dated 2023)

Test system: HCoV-229E
Assay: Plaque reduction test (antiviral assay) in Vero E6 cells
Details: for IC50: inhibition of HCoV-229E plaque formation; for Titer Post-Tx: viral titer after treatment

SMILES | IC50 [µg/mL] | Titer Post-Tx (peptide conc. 1 μg/ml) | Titer Post-Tx (peptide conc. 10 μg/ml) | Titer Post-Tx (peptide conc. 100 μg/ml)
CC[C@H](C)[C@H](NC(=O)[C@H](Cc1ccc(O)cc1)NC(=O)[C@H](CO)NC(=O)[C@H](CCC(=O)O)NC(=O)[C@H](CC(N)=O)NC(=O)[C@H](CC(C)C)NC(=O)[C@H](CCCCN)NC(=O)[C@H](CCCCN)NC(=O)[C@@H](NC(=O)[C@@H](NC(=O)[C@H](CCC(=O)O)NC(=O)[C@H](CCC(=O)O)NC(=O)[C@H](CC(C)C)NC(=O)[C@H](CO)NC(=O)[C@H](CCCNC(=N)N)NC(=O)[C@H](CCSC)NC(=O)[C@H](CCC(=O)O)NC(=O)[C@H](Cc1ccc(O)cc1)NC(=O)[C@H](CCC(=O)O)NC(=O)[C@H](CC(C)C)NC(=O)[C@H](CC(=O)O)NC(=O)[C@H](CC(C)C)NC(=O)[C@H](CC(C)C)NC(=O)[C@@H](NC(=O)[C@@H](NC(=O)[C@H](CC(N)=O)NC(=O)[C@@H](NC(=O)[C@H](CCC(N)=O)NC(=O)[C@@H](NC(=O)[C@H](CC(C)C)NC(=O)[C@@H](N)CO)[C@@H](C)O)[C@@H](C)CC)[C@@H](C)O)[C@@H](C)O)C(C)C)C(C)C)C(=O)N[C@@H](CC(=O)O)C(=O)N[C@@H](CC(C)C)C(=O)N[C@@H](CCCCN)C(=O)N[C@@H](CCC(=O)O)C(=O)N[C@@H](CC(C)C)C(=O)O | 6.63 (≈ 1.55 µM) | 0.029 × 10^3 PFU/ml | 0.019 × 10^3 PFU/ml | 0.017 × 10^3 PFU/ml
CC[C@H](C)[C@H](NC(=O)[C@H](Cc1ccc(O)cc1)NC(=O)[C@H](CO)NC(=O)[C@H](CCC(=O)O)NC(=O)[C@H](CC(N)=O)NC(=O)[C@H](CC(C)C)NC(=O)[C@H](C)NC(=O)[C@H](CCCCN)NC(=O)[C@@H](NC(=O)[C@@H](NC(=O)[C@H](CCC(N)=O)NC(=O)[C@H](CCC(N)=O)NC(=O)[C@H](CC(C)C)NC(=O)[C@H](CO)NC(=O)[C@H](CC(C)C)NC(=O)[C@H](CCSC)NC(=O)[C@H](CCC(=O)O)NC(=O)[C@H](Cc1ccc(O)cc1)NC(=O)[C@@H](NC(=O)[C@H](CC(C)C)NC(=O)[C@H](CC(=O)O)NC(=O)[C@H](CC(C)C)NC(=O)[C@H](CC(C)C)NC(=O)[C@@H](NC(=O)[C@@H](NC(=O)[C@H](CC(N)=O)NC(=O)[C@@H](NC(=O)[C@H](CCC(N)=O)NC(=O)[C@@H](NC(=O)[C@H](CC(C)C)NC(=O)[C@@H](N)CO)[C@@H](C)O)[C@@H](C)CC)[C@@H](C)O)[C@@H](C)O)[C@@H](C)O)C(C)C)C(C)C)C(=O)N[C@@H](CC(=O)O)C(=O)N[C@@H](CC(C)C)C(=O)N[C@@H](CCCCN)C(=O)N[C@@H](CCC(=O)O)C(=O)N[C@@H](CC(C)C)C(=O)O | 8.497 (≈ 2.05 µM) | 0.030 × 10^3 PFU/ml | 0.021 × 10^3 PFU/ml | 0.015 × 10^3 PFU/ml

Values after ≈ are worked out from the molar mass of the structure shown.
